Pooled drug test results. Numbers come from NIAID ChemDB, via PubChem.

Shared fields: target-level tests; organism: HIV-1; protein: Protease; read by: HPLC; endpoint: inhibition

Blank or dashed fields: not listed here.

compound	tested at	strain	result
CC[C@H](C)[C@H](NC(C)=O)C(=O)NCC(=O)N[C@@H](CC(C)C)C(=O)N[C@H](C(=O)N[C@@H](CC(C)C)C(=O)N[C@@H](CC(N)=O)C(=O)N[C@@H](Cc1ccccc1)C(=O)O)[C@@H](C)O	266 µg/mL		18%
COc1cc(O)cc2c1C[C@@H](O)[C@@H](c1cc(O)c(OC)c(O)c1)O2	100 µg/mL	IIIB	34.6%
COc1cc2c(c(O)c1OC)-c1c(cc3c(c1OC)OCO3)[C@H](OC(C)=O)[C@H](C)[C@H](C)C2	100 µg/mL		12.8%
C[C@@H]1CC[C@]2(C(=O)O[C@@H]3O[C@H](CO)[C@@H](O)[C@H](O)[C@H]3O)CC[C@@H]3C(=CC[C@H]4[C@@]3(C)CC[C@H]3C(C)(C)[C@H](O)[C@H](O)C[C@]43C)[C@@H]2[C@]1(C)O	100 µM		37.3%
CC[C@H](C)[C@H](NC(=O)[C@H](CCC(N)=O)NC(=O)[C@@H]1CCCN1C(C)=O)C(=O)N[C@H](C(=O)N[C@@H](CC(C)C)C(=O)O)[C@@H](C)O	800 µg/mL		10%
COc1cc(O)cc(O)c1C(=O)[C@@H]1[C@H](CC=C(C)C)C(C)=CC[C@H]1c1ccc(O)cc1	100 µM		43.1%
COc1cccc2cc(C(=O)N[C@@H](Cc3ccccc3)[C@H](O)C(=O)N3CSC(C)(C)[C@H]3C(=O)NC(C)(C)C)oc12	5 µM		21.1%
COc1cc(O)cc(O)c1C(=O)/C=C/c1ccccc1	100 µM		47.6%
Oc1cc(O)c2c(c1)O[C@H](c1ccc(O)c(O)c1)[C@H](O)[C@H]2c1c(O)cc(O)c2c1O[C@H](c1ccc(O)c(O)c1)[C@H](O)C2	100 µg/mL	IIIB	59%
CC(C)C[C@H](NC(=O)[C@@H](N)[C@@H](C)O)C(=O)N[C@@H](CC(N)=O)C(=O)N[C@@H](Cc1ccccc1)C(N)=O	800 µg/mL		16%
C=CC[C@H](NC(=O)[C@H](Cc1ccccc1)NS(=O)(=O)N1CCOCC1)C(=O)N[C@@H](CC1CCCCC1)[C@@H](O)C[C@H](C(=O)NCCCC)C(C)C	0.1 µM		66%
COc1cc(O)cc(O)c1C(=O)/C=C/c1ccc(O)cc1	100 µM		14.1%
Cc1ccccc1CNC(=O)[C@H]1N(C(=O)[C@@H](O)[C@H](Cc2ccccc2)NC(=O)c2ccccc2C(=O)NCc2ccncc2)CSC1(C)C	5 µM		64.8%
COc1c(O)cc([C@H]2Oc3cc(O)cc(O)c3C[C@@H]2O)cc1O[C@@H]1O[C@H](CO)[C@@H](O)[C@H](O)[C@H]1O	100 µg/mL	IIIB	68.2%
COc1cccc2cc(C(=O)N[C@@H](Cc3ccccc3)[C@H](O)C(=O)N3CSC(C)(C)[C@H]3C(=O)NCc3ccccc3C)oc12	5 µM		53.2%
COc1c(O)cc([C@H]2Oc3c(c(O)cc(O)c3C3c4c(O)cc(O)cc4O[C@H](c4ccc(O)c(O)c4)[C@@H]3O)C[C@H]2O)cc1O	100 µg/mL	IIIB	30.5%
CCOC(=O)[C@H](CC(C)C)NC(=O)[C@H](Cc1ccccc1)NC(=O)[C@@H](O)[C@H](Cc1ccccc1)NC(=O)OC(C)(C)C	40 µM		0%
CC(C)(C)NC(=O)[C@H]1N(C(=O)[C@@H](O)[C@H](Cc2ccccc2)NC(=O)c2ccccc2NC(=O)OCc2ccccc2)CSC1(C)C	5 µM		89.9%
CC(=O)N[C@H](C(=O)N[C@@H](CC(C)C)C(=O)N[C@@H](CC(N)=O)C(=O)N[C@@H](Cc1ccccc1)C(=O)O)[C@@H](C)O	266 µg/mL		18%
CCC(=O)O[C@H]1c2cc3c(c(OC)c2-c2c(cc(OC)c(OC)c2O)C[C@@H](C)[C@H]1C)OCO3	100 µg/mL		41%
Cc1ccccc1CNC(=O)[C@H]1N(C(=O)[C@@H](O)[C@H](Cc2ccccc2)NC(=O)c2ccccc2C(=O)NCc2ccccn2)CSC1(C)C	5 µM		69.6%
COC(=O)c1cc(O)c(O)c(O)c1	100 µM		24.6%
CSCC[C@H](N)C(=O)N[C@H](C(=O)N[C@@H](CC(C)C)C(=O)N[C@@H](CC(N)=O)C(=O)N[C@@H](Cc1ccccc1)C(=O)O)[C@@H](C)O	266 µg/mL		34%

3 of the rows above, restated:

compound	tested at	strain	result
COc1cccc2cc(C(=O)N[C@@H](Cc3ccccc3)[C@H](O)C(=O)N3CSC(C)(C)[C@H]3C(=O)NCc3ccccc3C)oc12	5 µM		53.2%
CC[C@H](C)[C@H](NC(=O)[C@H](CCC(N)=O)NC(=O)[C@@H]1CCCN1C(C)=O)C(=O)N[C@H](C(=O)N[C@@H](CC(C)C)C(=O)O)[C@@H](C)O	800 µg/mL		10%
COc1cc(O)cc(O)c1C(=O)/C=C/c1ccc(O)cc1	100 µM		14.1%

Neighbouring rows are from separate reports. Percent inhibition refers to the dose given; in toxicity tests it is the harm to the cells.